{
  "source": "paper PMC8277577",
  "about": "(Nature, 2021)",
  "binders": {"B1": {"name": "C038 (antibody, V domains shown)", "VH": "VQLVESGGGVVQPGRSLRLSCAASGFTFNRIAMYWVRQAPGKGLEWVAVISFDGSYEYYAESVKGRFAISRDNSKNTLYLQMNSLRAEDTAVYYCAKSPMGYCTNGVCYPDSWGQGTLVTVSS", "VL": "NFMLTQPHSVSESPGKTVTISCTGSSGSIASNYVQWYQQRPGSAPTTVIYEDTQRPSGVPDRFSGSIDSSSNSASLTISGLKTEDEADYYCQSYDINSRWVFGGGTKLTVL", "notes": "source: recombinant, purified"}, "B2": {"name": "C129 (antibody, V domains shown)", "VH": "QVQLVESGGGVVQPGRSLRLSCAASGFTFSSYGMNWVRQAPGKGLEWVAVISYDGSNTYYTDSVKGRFTISRDNSKNTLYLQMNSLRVDDTATYYCAKGPRFGWSYRGGSGFDIWGQGTMVTVSS", "VL": "DIQMTQSPSSLSASVGDRVTITCQASQDISNYLNWYQQKPGKAPKLLIYDASNLETGVPSRFSGSESGTDFTFTISSLQPEDIATYYCQQYDNLPITFGQGTRLEIK", "notes": "source: recombinant, purified"}},
  "target": "SARS-CoV-2 receptor binding domain (RBD) (SARS-CoV-2, GenBank MN985325.1 …, UniProt P0DTC2)",
  "test": "BLI",
  "conditions": "both partners purified",
  "data": [
    {"binder": "B1", "values": [
      {"measurement": "Kd", "result": 46.7, "unit": "nM"}
    ]},
    {"binder": "B2", "values": [
      {"measurement": "Kd", "result": 53.6, "unit": "nM"}
    ]}
  ]
}
